# Test results from PubChem BioAssay AID602123 (The Scripps Research Institute Molecular Screening Center, 2011).
# By UniProt entry, the sequences of proteins in these tests, tags left out.
# UniProt P0A9M0, whole entry, looked up: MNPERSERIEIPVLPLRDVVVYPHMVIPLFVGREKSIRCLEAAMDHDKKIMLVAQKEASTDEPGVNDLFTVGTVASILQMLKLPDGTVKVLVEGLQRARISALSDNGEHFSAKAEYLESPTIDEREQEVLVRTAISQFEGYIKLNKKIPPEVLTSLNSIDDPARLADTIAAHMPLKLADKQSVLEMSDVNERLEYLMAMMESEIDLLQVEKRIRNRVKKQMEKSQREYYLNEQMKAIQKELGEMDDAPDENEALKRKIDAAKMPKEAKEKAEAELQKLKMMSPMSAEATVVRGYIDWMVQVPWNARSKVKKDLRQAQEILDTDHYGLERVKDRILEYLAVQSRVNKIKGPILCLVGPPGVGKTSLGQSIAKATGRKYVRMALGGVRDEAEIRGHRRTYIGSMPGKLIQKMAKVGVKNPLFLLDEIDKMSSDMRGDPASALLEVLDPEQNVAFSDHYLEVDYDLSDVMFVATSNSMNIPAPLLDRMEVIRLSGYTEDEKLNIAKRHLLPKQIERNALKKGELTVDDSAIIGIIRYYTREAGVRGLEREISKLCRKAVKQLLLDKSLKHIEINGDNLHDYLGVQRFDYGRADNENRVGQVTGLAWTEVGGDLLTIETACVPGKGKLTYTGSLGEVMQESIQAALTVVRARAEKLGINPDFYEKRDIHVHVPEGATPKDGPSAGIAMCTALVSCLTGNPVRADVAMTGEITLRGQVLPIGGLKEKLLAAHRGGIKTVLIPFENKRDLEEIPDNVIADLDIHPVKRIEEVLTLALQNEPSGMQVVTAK
# Only a part is listed here, and it is no random draw. Active and inactive are the calls of the source. Rule as the data show it: active = inhibition above about 13% (passing the limit was not always enough); inactive = the rest.
# Molecular target: Lon protease (Escherichia coli (strain K12)) (UniProt P0A9M0)
# Experiment: inhibitors of E. coli Lon protease, primary screen, biochemical, fluorescence polarization (AID 602123);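 also: 0% = enzyme with probe and DMSO and 100% = no enzyme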
# Conditions: purified E. coli Lon protease, at 7.94 µM, hits give high values
row,SMILES,inhibition
1,COc1ccc(N/C(=N/P(=O)(N2CCOCC2)N2CCOCC2)N2CCOCC2)cc1,inactive: 6.99%
2,O=[N+]([O-])c1cc(Oc2ccc([N+](=O)[O-])cc2C(F)(F)F)cc([N+](=O)[O-])c1,inactive: -9.93%
3,COc1cc(I)ccc1[As](=O)(O)O,inactive: 2.09%
4,COc1ccc2nc(NP(=O)(c3ccccc3)c3ccccc3)sc2c1,inactive: 5.44%
5,O=P1(N(CCCl)CCCl)Nc2ccccc2N1,inactive: -2.74%
6,O=P1(N(CCCl)CCCl)OCCCN1CCCl (centres undefined),inactive: -9.5%
7,Cc1cc(=O)[nH]c(N[N+](=O)[O-])n1,inactive: -1.74%
8,O=C(OC1CN2CCC1CC2)C12CC3CC(CC(C3)C1)C2 (centres undefined),inactive: -7.16%
9,Cc1c2c(nc3ccccc13)SC(C(Cl)Cl)C2 (centres undefined),inactive: 1.11%
10,O=[N+]([O-])c1cc([N+](=O)[O-])c(-c2ccn[nH]2)s1,inactive: 2.02%
11,O=C(OC1CN2CCC1CC2)c1cccc2[nH]cnc12 (centres undefined),inactive: -1.21%
12,CCN(CC)C(=S)SC(NC=O)C(Cl)(Cl)Cl (centres undefined),inactive: -10.4%
13,CC(C)NC(=O)NP(=O)(Oc1ccccc1)Oc1ccccc1,inactive: 1%
14,CC(C)c1ccc(OP(=O)(Nc2ccccn2)Oc2ccccc2F)cc1 (centres undefined),inactive: -4.64%
15,COC(=O)C1(C)COP(=O)(N2CCCCCC2)OC1 (centres undefined),inactive: -10.8%
16,ClCCSc1nnc(-c2cccnc2)o1,inactive: -8.96%
17,Cc1ccc2nc3c(c(C)c2c1)CC(C(Cl)Cl)S3 (centres undefined),inactive: -0.46%
18,[N-]=[N+]=NC1CCCCC1NC(=O)c1cc([N+](=O)[O-])cc([N+](=O)[O-])c1 (centres undefined),inactive: -1.02%
19,Cc1ccc(OP(=O)(Nc2ccc([N+](=O)[O-])cn2)Oc2ccc(C)cc2)cc1,inactive: -7.33%
20,COc1cc(C(=O)NCC2(N3CCOCC3)CCCCC2)ccc1OCC(C)C,inactive: 3.7%
21,O=[N+]([O-])c1ccc(-c2cc([N+](=O)[O-])c(O)c([N+](=O)[O-])c2)cc1,inactive: -18.4%
22,C[As](=O)(O)c1cccc(C(=O)O)c1,inactive: -1.62%
23,O=[As](O)(c1ccc(O)cc1)c1ccccc1O,inactive: -2.5%
24,O=[N+]([O-])c1ccc(Nc2ccc(Oc3ccc([N+](=O)[O-])cc3[N+](=O)[O-])cc2)c([N+](=O)[O-])c1,inactive: 0.36%
25,O=P(Nc1ccccn1)(c1cccc2ccccc12)c1cccc2ccccc12,inactive: -6.05%

row,SMILES,inhibition
1,Cc1cc(SC(NC=O)C(Cl)(Cl)Cl)ncn1 (centres undefined),inactive: -4.83%
2,CCOC(=O)Nc1cccc([As](=O)(O)O)c1,inactive: -3.08%
3,Cc1cc(SC(NC(=O)c2ccccc2)C(Cl)(Cl)Cl)nc(C(C)C)n1 (centres undefined),inactive: -3.39%
4,CCCCOc1ccc(C(=O)NCC2(N3CCCCC3)CCCCC2)cc1OC,inactive: 4.22%
5,COP(=O)(OC)N1CC1c1ccccc1 (centres undefined),inactive: -1.44%
6,CC1CCNP(=O)(N(CCCl)CCCl)O1 (centres undefined),inactive: 2.37%
7,CCOC(=O)Nc1ccc([As](=O)(O)O)c(O)c1,inactive: -2.15%
8,O=C(O)C(O)c1ccc(N(CCCl)CCCl)cc1 (centres undefined),inactive: -1.74%
9,CCC(C)N(CC(C)C)C(=S)SC(NC(C)=O)C(Cl)(Cl)Cl (centres undefined),inactive: -0.35%
10,CCOC(=O)c1ccc(NC(=O)C(C)(CCl)SC)cc1 (centres undefined),inactive: 7.65%
11,CSc1ccc(Nc2c([N+](=O)[O-])cc([N+](=O)[O-])cc2[N+](=O)[O-])cc1,inactive: 18.9%
12,O=C(OC1CN2CCC1CC2)c1cccc([N+](=O)[O-])c1 (centres undefined),inactive: 5.53%
13,O=C(Nc1ccncc1[N+](=O)[O-])c1ccc([N+](=O)[O-])cc1[N+](=O)[O-],inactive: 7.13%
14,O=C(COc1ccccc1)OC1CN2CCC1CC2 (centres undefined),inactive: -0.26%
15,O=C(O)C(=O)c1ccc(N(CCCl)CCCl)cc1,inactive: -12.8%
16,COC(=O)C1(C)COP(=O)(N2CCCC2)OC1 (centres undefined),inactive: 13.8%
17,COP1(=S)c2c(C)nn(CCC#N)c2N=C(c2ccc(F)cc2)N1C (centres undefined),inactive: 3.56%
18,CC1(CBr)Cn2c(nc3ccccc3c2=O)S1 (centres undefined),inactive: -3.02%
19,CC(C)/C=N\N=C(\N)N[N+](=O)[O-],inactive: 6.6%
20,CN(C(=O)Cc1ccc(Cl)c(Cl)c1)[C@@H]1CCCC[C@H]1N1CCCC1,inactive: -0.27%
21,COc1ccccc1CNC(=O)COC(=O)C(O)(c1ccccc1)c1ccccc1,inactive: -2.47%
22,CC(C)(C)C(=O)NC(Sc1ncccn1)C(Cl)(Cl)Cl (centres undefined),inactive: 0.08%
23,O=P1(N(CCCl)CCCl)NCCC(C(F)(F)F)O1 (centres undefined),inactive: -1.85%
24,Clc1n[nH]nc1-c1nn[nH][15n]1,inactive: -4.59%
25,CN(CCCl)Cc1cc(Cl)c(NC2=NCCN2)c(Cl)c1,inactive: -6.49%

row,SMILES,inhibition
1,CCOP(=O)(Nc1ccc(C)cn1)OCC,inactive: 3.36%
2,CCOP(=O)(NC(=NC(C)c1ccccc1)NC(C)c1ccccc1)OCC (centres undefined),inactive: -5.49%
3,O=P1(Nc2ccccn2)COc2ccccc2OC1,inactive: 5.42%
4,CCC1=CC2Cc3nc4ccc(Cl)cc4c(N)c3C(C1)C2 (centres undefined),inactive: 2.68%
5,O=P1(Nc2ccc(Br)cn2)COc2ccccc2OC1,inactive: -4.21%
6,NS(=O)(=O)c1cccc(NC(=O)COC(=O)C(O)(c2ccccc2)c2ccccc2)c1,inactive: -3.26%
7,O=[As](O)(c1cccs1)c1cccs1,inactive: -6.81%
8,Cc1ccc(OCC(=O)OC2CN3CCC2CC3)cc1 (centres undefined),inactive: -8.25%
9,Nc1cccc([As](=O)(O)c2ccccc2)c1,inactive: -2.3%
10,O=P1(Nc2ncccn2)COc2ccccc2OC1,inactive: -4.07%
11,Cc1ccc(S(=O)(=O)N(CCCN)CCCc2c(C)nc(N)[nH]c2=O)cc1,inactive: -0.24%
12,CCCC1OP(=O)(Nc2ccccc2)OCC1CC (centres undefined),inactive: -4.99%
13,O=C(/C=C/c1ccccc1)OC1CN2CCC1CC2 (centres undefined),inactive: 2.36%
14,CN(C)C1(CNC(=O)c2ccc(S(C)(=O)=O)cc2)CCCCC1,inactive: -6.11%
15,CC1CCC(C(C)C)C(OP(=O)(Nc2ccccn2)c2ccccc2)C1 (centres undefined),inactive: -0.78%
16,Cc1ccc(C(=O)OC2CN3CCC2CC3)cc1 (centres undefined),inactive: 2.52%
17,Cc1nn(-c2ccccc2)c2c1P(=O)(N1CCOCC1)N(C)C(c1ccccc1)=N2 (centres undefined),inactive: -21.1%
18,CN(C(=O)Cc1ccc(Cl)c(Cl)c1)[C@H]1CC[C@@]2(CCCO2)C[C@@H]1N1CCCC1,inactive: -2.19%
19,CN(C)C(=O)c1cc([N+](=O)[O-])cc2c1-c1c(cc([N+](=O)[O-])cc1[N+](=O)[O-])C2=O,inactive: 11%
20,O=[N+]([O-])c1ccc2c(c1)nnn2O,inactive: 1.16%
21,CN(C(=O)Cc1ccccc1)[C@@H]1CC[C@]2(CCCO2)C[C@H]1N1CCCC1,inactive: -4.98%
22,CCOP1(=S)c2c(C)nn(CCC#N)c2N=C(c2ccc(F)cc2)N1C (centres undefined),inactive: -11.7%
23,N#CCCN(C(=O)COC(=O)C(O)(c1ccccc1)c1ccccc1)c1ccc(F)cc1,inactive: -3.35%
24,NC(=O)Nc1ccc([As](=O)(O)O)cc1,inactive: -20.4%
25,Nc1ccccc1[As](=O)(O)c1ccccc1,inactive: -2.84%

row,SMILES,inhibition
1,O=C(O)COc1ccc([As](=O)(O)O)cc1[N+](=O)[O-],inactive: 3.17%
2,CS(=O)(=O)c1cc([N+](=O)[O-])c2no[n+]([O-])c2c1,inactive: 13.2%
3,O=P(Nc1nccs1)(c1ccccc1)c1nc2ccccc2s1 (centres undefined),inactive: -4.05%
4,O=P(Nc1nccs1)(Oc1ccccc1)Oc1ccccc1,inactive: -7.04%
5,CCOP1(=S)c2c(C)nn(CCC#N)c2N=C(c2ccccc2F)N1C (centres undefined),inactive: -9.09%
6,CCOP(=O)(Nc1cccc2ccccc12)OCC,inactive: 5.43%
7,COc1cc(C2NCCC3(OCCO3)C2(C)C)cc(OC)c1OC (centres undefined),inactive: -1.35%
8,CCCOP(=S)(Nc1nc(N)cc(=O)[nH]1)OCCC,inactive: 3.27%
9,Cc1ccc(NCCc2c([N+](=O)[O-])cc([N+](=O)[O-])cc2[N+](=O)[O-])cc1,inactive: 3.01%
10,O=[As](O)(c1cccc(O)c1)c1cccc(O)c1,inactive: -7.15%
11,Cc1cccc(OCC(=O)OC2CN3CCC2CC3)c1 (centres undefined),inactive: 1.85%
12,CS(=O)(=O)c1ccc(Cl)c(NC(=O)COC(=O)C(O)(c2ccccc2)c2ccccc2)c1,inactive: -2.18%
13,COc1cc(C(=O)NCC2(N3CCOCC3)CCCCC2)cc(Cl)c1OC(C)C,inactive: -7.91%
14,O=[As](O)(O)c1cccnc1,inactive: 3.86%
15,O=C(OC1CN2CCC1CC2)c1ccc(Cl)cc1 (centres undefined),inactive: 9.33%
16,CC(=O)Nc1ccc(Oc2c([N+](=O)[O-])cc([N+](=O)[O-])cc2[N+](=O)[O-])cc1,inactive: -6.83%
17,CC(=O)Nc1ccc([As](=O)(O)O)c(O)c1,inactive: 8.16%
18,COC(=O)C1(C)COP(=O)(NCc2ccccc2)OC1 (centres undefined),inactive: -9.41%
19,N#C/C(=C\c1ccc(N(CCBr)CCBr)cc1)C(N)=O,inactive: -55.7%
20,CC(=O)c1ccc(N2CC2c2ccncc2)cc1 (centres undefined),inactive: -16.3%
21,C[C@@H]1C=CCP(=O)(Oc2ccccc2)O1 (some centres undefined),inactive: 0.77%
22,C[C@H]1OP(=O)(Oc2ccccc2)C[C@@H]2O[C@@H]21 (some centres undefined),inactive: 0.67%
23,Cc1ccccc1CN(C)C(=O)COC(=O)C(O)(c1ccccc1)c1ccccc1,inactive: 5.41%
24,CCc1cc(O)c([N+](=O)[O-])c(C)c1[N+](=O)[O-],inactive: -8.04%
